# Assay results as given in paper PMC9040839, “Chemotaxis of the Human Pathogen Pseudomonas aeruginosa to the Neurotransmitter Acetylcholine” (mBio, 2022).
# Chains of the proteins cited; added tags and fusions are not shown.
# UniProt Q9HVF8, entry or part of it: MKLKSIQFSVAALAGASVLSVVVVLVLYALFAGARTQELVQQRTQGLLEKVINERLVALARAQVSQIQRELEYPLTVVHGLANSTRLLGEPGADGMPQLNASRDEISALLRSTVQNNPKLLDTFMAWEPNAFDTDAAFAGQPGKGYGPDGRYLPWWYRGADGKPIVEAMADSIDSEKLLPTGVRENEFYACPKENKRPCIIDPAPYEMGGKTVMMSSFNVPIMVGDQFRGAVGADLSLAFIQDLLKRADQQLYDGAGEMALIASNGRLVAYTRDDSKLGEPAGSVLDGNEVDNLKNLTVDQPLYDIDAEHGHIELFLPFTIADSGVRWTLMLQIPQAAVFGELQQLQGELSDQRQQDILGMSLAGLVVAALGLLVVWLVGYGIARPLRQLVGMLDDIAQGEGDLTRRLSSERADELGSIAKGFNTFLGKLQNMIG
# Target: PctD-Tar hybrid (Pseudomonas aeruginosa, UniProt Q9HVF8)
# Test: cell-based
smiles,measurement,value
CC(=O)OCC[N+](C)(C)C [acetylcholine],EC50,70 ± 20 nM
